Compound potency records, mixed from different reports. Data source: NIAID ChemDB in PubChem.

All rows: whole-cell or culture tests; organism: HIV-1; endpoint: EC50

a–b is a range or a potency band. Rows are shuffled and stem from different studies. An empty or dashed field is not shown. ECn: concentration that inhibits the pathogen or its effect by n%.

smiles,strain or isolate,changes,method,setting,result
CC(C)(N)C(=O)O.[Na+],IIIB,-,luciferase,-,1.08 µM
CC(=O)c1ccc(C)cc1NC(C(N)=O)c1c(Cl)cccc1Cl,UC781-RS(RT-Y181C,RT-Y181C,-,-,>1 µM
CC[C@H](C)[C@H](N)C(=O)O.[Na+],IIIB,-,luciferase,-,0.52 µM
Cc1cn([C@H]2C[C@H](N=[N+]=[N-])[C@@H](CO)O2)c(=O)[nH]c1=O,CC7 Clinical isolates,-,p24,-,0.01 µM
Cc1[nH]c(=O)c(F)cc1Cn1cnc(C(F)(F)C(F)F)c(Oc2cc(C(F)F)cc(C#N)c2C)c1=O,-,K103N,RT activity / fluorescence,-,1.899 µM
C[C@H](Cn1cnc2c(N)ncnc21)OCP(=O)(O)O,DJ259,-,p24 / ELISA,-,0.95 µM
Cc1ccccc1Cc1cccc(C(=O)CC(=O)C(=O)O)c1,-,-,p24,-,0.2 µM
CC(C)[C@H](N)C(=O)O.[Na+],NL4-3,-,luciferase,-,0.17 µM
COC(=O)/C=C/Cn1c(=O)c(C)cn([C@@H]2O[C@H](CO[Si](C)(C)C(C)(C)C)C3(OS(=O)(=O)C=C3N)[C@H]2O[Si](C)(C)C(C)(C)C)c1=O,-,-,-,-,0.03–0.76 µM
Nc1ncnc2c1ncn2[C@H]1C=C[C@@H](OCP(=O)(O)O)C12CC2,WILD TYPE,-,-,-,19.1 µM
CC(C)(C)NC(=O)[C@@H]1CN(C(C)(C)c2cc3cnccc3o2)CCN1C[C@@H](O)C[C@@H](Cc1ccccc1)C(=O)N[C@H]1c2ccccc2OC[C@H]1O,V-18C(PR-L10I M36I S37D M46I R57K LK63P A71V G73S I84V L90M I93L),PR-L10I M36I S37D M46I R57K LK63P A71V G73S I84V L90M I93L,-,-,<0.25 µM
CC(C)c1nc(CN(C)C(=O)N[C@H](C(=O)N[C@@H](Cc2ccccc2)C[C@H](O)[C@H](Cc2ccccc2)NC(=O)OCc2cncs2)C(C)C)cs1,pNL4-3 luciferase reporter,-,-,-,0.0196 µM
c1cc(CN2CCCNCCNCCCNCC2)ccc1CN1CCCNCCNCCCNCC1,PERE98287RT Recombinant,-,-,-,0.02 µM
COC(=O)Cn1c(=O)c(C)cn([C@@H]2O[C@H](CO[Si](C)(C)C(C)(C)C)C3(OS(=O)(=O)C=C3N)[C@H]2O[Si](C)(C)C(C)(C)C)c1=O,-,-,-,-,0.03–0.76 µM
CC(C)(C)NC(=O)[C@@H]1C[C@@H]2CCCC[C@@H]2CN1C[C@@H](O)[C@H](Cc1ccccc1)NC(=O)[C@H](CC(N)=O)NC(=O)c1ccc2ccccc2n1,RF,-,-,-,0.0064 µM
Cc1cn([C@@H]2O[C@H](CO[Si](C)(C)C(C)(C)C)[C@@]3(OS(=O)(=O)C=C3N)[C@H]2O[Si](C)(C)C(C)(C)C)c(=O)n(CCCN)c1=O,-,-,-,-,0.03–0.76 µM
Fc1cccc(F)c1C1SCc2nc3ccccc3n21,-,-,-,-,3.4 µM
Cc1cn([C@@H]2O[C@H](CO[Si](C)(C)C(C)(C)C)C3(OS(=O)(=O)C=C3N)[C@H]2O[Si](C)(C)C(C)(C)C)c(=O)n(CCCO)c1=O,-,-,-,-,0.03–0.76 µM
CC(C)=CCOc1cc(NC(=S)c2ccoc2C)ccc1Cl,NL4-3,-,-,-,0.006 µM
C[C@H](N)C(=O)O.[Na+],IIIB,-,luciferase,-,0.41 µM
Cc1cn([C@@H]2O[C@H](CO[Si](C)(C)C(C)(C)C)C3(OS(=O)(=O)C=C3N)[C@H]2O[Si](C)(C)C(C)(C)C)c(=O)n(CC(=O)O)c1=O,-,-,-,-,0.03–0.76 µM
CN1[C@@H](c2cccc(I)c2)c2ccccc2S1(=O)=O,-,-,-,-,0.076 µM
CO[P@](=O)(c1cc(C)cc(/C=C/C#N)c1)c1c(C(N)=O)[nH]c2ccc(Cl)cc12,BH10,-,-,-,<0.0018 µM
Nc1ncnc2c1ncn2[C@H]1[C@H](O)[C@H](O)[C@@H](OCP(=O)(O)O)C12CC2,WILD TYPE,-,-,-,90 µM
Cc1ccnc2c1NC(=O)c1cccnc1N2C1CC1,NL4-3,DS-resistant,-,-,0.02 µM
Cc1cc(C)cc(C(=O)c2cc(Cl)ccc2OCCN2CCC(=O)NC2=O)c1,-,K103N,RT activity,pseudotyped,3.6 µM
Cc1cccc([C@H]2c3ccccc3S(=O)(=O)N2C)c1,-,-,-,-,0.037 µM
COc1ccc2c(c1)N(C(=O)OC(C)C)[C@@H](CSC)C(=S)N2,HXB2,-,recombinant virus assay,-,0.0027 µM
Cc1cn([C@@H]2O[C@H](CO[Si](C)(C)C(C)(C)C)C3(OS(=O)(=O)C=C3N)[C@H]2O[Si](C)(C)C(C)(C)C)c(=O)n(CCBr)c1=O,-,-,-,-,0.03–0.76 µM
Cc1cc(S(N)(=O)=O)ccc1NC(=O)COc1ccccc1C(=O)c1cc(Cl)cc(C#N)c1,IIIB,-,-,-,<0.002 µM
CCN1c2ncc(NCc3ccc(OCP(=O)(O)O)cc3)cc2C(=O)N(C)c2cccnc21,-,Y181C,-,-,>5 µM
O=C(NCc1ccc(F)cc1)c1nc(N2CCCCS2(=O)=O)c2cccnc2c1O,-,INTG-T66I M154I,p24,-,0.0128 µM
Cc1ccnc2c1NC(=O)c1cccnc1N2C1CC1,-,K103N,RT activity,pseudotyped,>10 µM
Cc1cn([C@@H]2O[C@H](CO[Si](C)(C)C(C)(C)C)C3(OS(=O)(=O)C=C3N)[C@H]2O[Si](C)(C)C(C)(C)C)c(=O)n(C/C=C/CO)c1=O,-,-,-,-,0.03–0.76 µM
Cc1cn([C@@H]2O[C@H](CO[Si](C)(C)C(C)(C)C)[C@@]3(OS(=O)(=O)C=C3N)[C@H]2O[Si](C)(C)C(C)(C)C)c(=O)[nH]c1=O,UC781-RS(RT-Y181C,RT-Y181C,-,-,>10 µM
Cc1cn([C@H]2C[C@H](N=[N+]=[N-])[C@@H](CO)O2)c(=O)[nH]c1=O,WOPRO1838 Recombinant,-,-,-,0.004 µM

A second listing of 3 rows from above:

smiles,strain or isolate,changes,method,setting,result
Cc1[nH]c(=O)c(F)cc1Cn1cnc(C(F)(F)C(F)F)c(Oc2cc(C(F)F)cc(C#N)c2C)c1=O,-,K103N,RT activity / fluorescence,-,1.899 µM
Cc1cn([C@@H]2O[C@H](CO[Si](C)(C)C(C)(C)C)C3(OS(=O)(=O)C=C3N)[C@H]2O[Si](C)(C)C(C)(C)C)c(=O)n(C/C=C/CO)c1=O,-,-,-,-,0.03–0.76 µM
CN1[C@@H](c2cccc(I)c2)c2ccccc2S1(=O)=O,-,-,-,-,0.076 µM